Measurements: patent US12295987B2 (Eli Lilly and Company, priority 2018, dated 2025)

Experiment: general procedure: Fmoc solid-phase peptide synthesis; Fmoc-Rink-MBHA Low Loading resin, 100-200 mesh, 1% DVB cross-linked polystyrene, 0.3-0.4 meq/g; diisopropylcarbodiimide/Oxyma; PyAOP/DIPEA for fatty acid-linker moiety
Details: whole synthesis, analytical RP-HPLC, TFA salt

For “Y-Aib-EGT-αMeF(2F)-TSDYSI-αMeL-LDEK((2-[2-(2-Amino-ethoxy)-ethoxy]-acetyl)2-(γGlu)-CO—(CH2)18—CO2H)AQ-Aib-EFI-(D-Glu)-YLIEGGPSSGAPPPS-NH2”, the “final HPLC purity” value was 98.0%.
